Anti-infective test results gathered from many reports (values: NIAID ChemDB through PubChem).

Common to all: host cell toxicity; cell line: VERO; endpoint: CC50

Neighbouring rows are from separate reports.

structure	method	value
Cc1ccc2nc(Cl)c(/C=C/C(=O)c3sccc3Cl)cc2c1	MTS	95.4 µM
CCCCS(=O)(=O)Nc1ccc2[nH]c(C(=O)NC3CCCc4ccccc43)c(C)c2c1	resazurin	28.4 µM
COc1ccc(-c2c(O)ccn([C@@H]3O[C@H](CO)[C@@H](O)[C@H]3O)c2=O)cc1	neutral red	>200 µM
C=C1CCC2C(C)(COC(=O)CCCCCCCCCCCCCCC)C(OC(=O)CCCCCCCCCCCCCCC)CCC2(C)C1C/C=C1\C(=O)OCC1OC(=O)CCCCCCCCCCCCCCC	crystal violet	122.1 µM
CCc1nc2ccccc2n1CCCCSc1nccs1	luminescence	>50 µM
COc1ccc2nc(Cl)c(/C=C/C(=O)c3cc(Cl)sc3Cl)cc2c1	MTS	4.6 µM
CCCCS(=O)(=O)Nc1ccc2[nH]c(CNS(C)(=O)=O)c(C)c2c1	resazurin	>130 µM
CCc1nc2ccccc2n1CCCCN1CCOCC1	luminescence	>100 µM
CCCCS(=O)(=O)Nc1ccc2[nH]c(C(=O)NC3(c4ccccc4)CC3)c(C)c2c1	resazurin	59 µM
COc1ccc(-c2c(O)ccn([C@@H]3O[C@H](COC(C)=O)[C@@H](OC(C)=O)[C@H]3OC(C)=O)c2=O)cc1	neutral red	>400 µM
CCCCS(=O)(=O)Nc1ccc2[nH]c(C(=O)NC3CCC3)c(C)c2c1	resazurin	140 µM
C=C1CCC2C(C)(COC(=O)CCCCCCCCCCCCCCC)C(OC(=O)CCCCCCCCCCCCCCC)CCC2(C)C1C/C=C1\C(=O)OCC1O	crystal violet	4.2 µM
COc1ccc2nc(Cl)c(/C=C/C(=O)c3ccc(C)o3)cc2c1	MTS	22.9 µM
O=C(O)c1c2n(c3cc(F)c(N4CCC(n5c(=O)[nH]c6ccc(Cl)cc65)CC4)cc3c1=O)CS2	MTT	>125 µM
COc1ccc2nc(Cl)c(/C=C/C(=O)c3cc(C)sc3C)cc2c1	MTS	8.9 µM
CCCCS(=O)(=O)Nc1ccc2[nH]c(C(=O)N[C@H](C)c3ccccc3)c(C)c2c1	resazurin	30.2 µM
CC[C@H](C)[C@H]1OC(=O)[C@H](C(C)C)N(C)C(=O)[C@@H]([C@@H](C)CC)OC(=O)[C@H](C(C)C)N(C)C(=O)[C@@H]([C@@H](C)CC)OC(=O)[C@H](C(C)C)NC1=O	absorbance	5.5 µM
C=C1CCC2C(C)(CO)C(O)CCC2(C)C1C/C=C1\C(=O)OCC1OC(C)=O	crystal violet	6.6 µM
O=C(O)c1c2n(c3cc([N+](=O)[O-])c(N4CCC5(CC4)OCCO5)cc3c1=O)CS2	MTT	149 µM
C=C1CCC2C3(C)COC(C)(C)OC3CCC2(C)C1/C=C/C1=CCOC1=O	crystal violet	44.9 µM
CCc1nc2ccccc2n1CCCCNCc1ccccc1	luminescence	>50 µM
O=C(O)c1c2n(c3cc([N+](=O)[O-])c(N4CCC(N5CCCCC5)CC4)cc3c1=O)CS2	MTT	141 µM
CCc1nc2ccccc2n1CCCCSc1ncc(C)s1	luminescence	>50 µM
CCN(CC)Cc1cc(N(c2cc(C)nc3cc(Cl)ccc23)S(=O)(=O)c2ccc(Cl)s2)ccc1O	resazurin	60.13 µg/mL
CCc1nc2ccc(C)cc2n1CCCCNc1ccccc1	luminescence	22 µM
CC(C)(C)OC(=O)NC1C2CN(c3cc4c(=O)c(C(=O)O)c5n(c4cc3[N+](=O)[O-])CS5)CC21	MTT	65.86 µM
CCc1nc2ccc(OC)cc2n1CCCSc1nnc(-c2ccc(Cl)cc2)o1	luminescence	49 µM
CC(C)(C)NC(=O)C1c2ccccc2CCN1c1cc2c(=O)c(C(=O)O)c3n(c2cc1[N+](=O)[O-])CS3	MTT	61.44 µM
CCc1nc2ccccc2n1CCCCSc1ccc(OC)cc1	luminescence	34 µM
Cc1csc(C(=O)/C=C/c2cc3cc(C)ccc3nc2Cl)c1	MTS	64.2 µM

CCn: concentration that lowers growth or viability of the cells by n%.